# Target: Human immunodeficiency virus type 1 protease (Human immunodeficiency virus 1, UniProt Q72874, Q7K)
# By UniProt entry, the sequences of proteins in these tests, tags left out.
# UniProt Q72874, entry or part of it Q7K: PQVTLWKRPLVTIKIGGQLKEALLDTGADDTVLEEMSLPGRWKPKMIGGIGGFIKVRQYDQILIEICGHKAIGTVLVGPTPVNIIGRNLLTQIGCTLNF
# Assay: Inhibition of HIV1 protease Q7K mutant by FRET method
# How it was run: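 Wild-type HIV-1 protease (Q7K), desalted into 20 mM sodium acetate pH 5, apparent concentration around 50 nM by UV at 280 nm. Enzyme preincubated with inhibitor (DMSO stocks) or DMSO 20–30 min at room temperature. Read ex 340/em 490 nm, 30 °C, about 10 min.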
SMILES,Ki (read-out: Ki) [nM],Ki (read-out: pKi (converted)) [nM]
CNC(=O)CCC(=O)N[C@@H](Cc1ccccc1)[C@H](O)CN(CC1CC1)S(=O)(=O)c1ccco1,58,57.5
CNC(=O)CCC(=O)N[C@@H](Cc1ccccc1)[C@H](O)CN(CC1CC1)S(=O)(=O)c1cccc(OC)c1,23.9,24
